# Reference: patent US7777025B2, “Transition state analog inhibitors of ricin A-chain” (dated 2010)
# Molecular target: ricin toxin-A (RTA) (Ricinus communis, UniProt P02879)
# Experiment: Inhibition kinetics of RTA, competitive with substrate A-10; adenine release quantitated by HPLC
# Details: ternary complex of RTA, DADMe-A and 9-deazaadenine
smiles,measurement,value
Nc1ncnc2cc[nH]c12,effect on the activation by DADMe-A,abolish the activation effect
